According to article PMC2918394 (Journal of medicinal chemistry, 2010):

Molecular target: SARS-CoV PLpro (Severe acute respiratory syndrome coronavirus, UniProt P0C6X7)
Assay type: biochemical

1-[1-(2-Naphthyl)ethyl]-4-(4-methoxybenzylamino)carbonylpiperazine [Compound 20]
IC50: > 100 µM
